Measured values taken from publication PMC5061470, “Promiscuous targeting of bromodomains by bromosporine identifies BET proteins as master regulators of primary transcription response in leukemia” (Science Advances, 2016).

The chains behind the UniProt entries cited, without tags or fusion partners. Residues count along the entry.
UniProt P02708, 21-457: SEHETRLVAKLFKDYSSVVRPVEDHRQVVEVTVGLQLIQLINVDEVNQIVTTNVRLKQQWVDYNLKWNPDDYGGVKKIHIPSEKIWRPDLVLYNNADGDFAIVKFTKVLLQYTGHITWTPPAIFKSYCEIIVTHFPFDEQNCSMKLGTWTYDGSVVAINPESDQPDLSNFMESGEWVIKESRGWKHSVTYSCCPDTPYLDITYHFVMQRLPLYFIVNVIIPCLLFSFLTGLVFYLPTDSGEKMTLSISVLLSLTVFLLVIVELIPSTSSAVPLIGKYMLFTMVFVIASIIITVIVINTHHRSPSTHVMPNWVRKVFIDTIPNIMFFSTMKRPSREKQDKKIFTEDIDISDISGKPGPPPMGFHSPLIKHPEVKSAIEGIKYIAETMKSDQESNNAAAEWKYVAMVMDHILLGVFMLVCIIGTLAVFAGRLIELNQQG
UniProt P07510, 23-517: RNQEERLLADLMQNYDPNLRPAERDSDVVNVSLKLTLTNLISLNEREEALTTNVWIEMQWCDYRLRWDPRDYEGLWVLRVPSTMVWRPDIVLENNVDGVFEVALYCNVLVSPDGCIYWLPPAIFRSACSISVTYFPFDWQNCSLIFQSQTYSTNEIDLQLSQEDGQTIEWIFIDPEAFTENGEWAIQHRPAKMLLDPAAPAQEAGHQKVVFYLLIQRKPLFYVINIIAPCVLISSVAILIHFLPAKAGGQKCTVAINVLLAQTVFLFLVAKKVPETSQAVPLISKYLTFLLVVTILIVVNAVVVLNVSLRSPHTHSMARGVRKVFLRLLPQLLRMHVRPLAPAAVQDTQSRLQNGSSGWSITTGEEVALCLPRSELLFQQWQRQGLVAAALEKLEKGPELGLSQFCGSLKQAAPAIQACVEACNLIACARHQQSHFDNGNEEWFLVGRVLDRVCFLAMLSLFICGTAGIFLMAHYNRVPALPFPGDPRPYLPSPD
UniProt Q07001, 22-517: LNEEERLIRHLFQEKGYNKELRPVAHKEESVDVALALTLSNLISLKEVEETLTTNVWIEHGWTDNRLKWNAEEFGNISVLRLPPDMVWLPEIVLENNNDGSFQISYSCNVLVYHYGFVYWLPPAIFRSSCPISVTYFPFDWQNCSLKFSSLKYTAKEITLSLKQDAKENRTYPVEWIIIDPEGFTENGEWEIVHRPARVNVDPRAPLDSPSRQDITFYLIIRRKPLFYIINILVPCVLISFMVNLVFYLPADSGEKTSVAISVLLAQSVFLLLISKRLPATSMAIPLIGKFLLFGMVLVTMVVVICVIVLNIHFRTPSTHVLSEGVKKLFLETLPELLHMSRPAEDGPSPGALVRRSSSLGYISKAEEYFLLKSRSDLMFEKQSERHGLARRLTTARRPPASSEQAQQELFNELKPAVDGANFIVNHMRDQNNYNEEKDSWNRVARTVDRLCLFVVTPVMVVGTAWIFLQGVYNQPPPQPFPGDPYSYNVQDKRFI

Target: N muscle-type (h) (Homo sapiens, UniProt P02708+P07510+Q07001)
Format: binding

In the case of alpha -bungarotoxin, the IC50 is reported as 3.2 nM and the Ki (read-out: Ki Ref.) is reported as 3 nM.
